How the values were obtained:
[1] = biological target: T1, PpSQDH (P. putida SQ dehydrogenase; PpSQ1_00090) (Pseudomonas putida, UniProt P0DOV5); settings: competitive with NAD+; varied SQ or NAD+, 50 mM tricine pH 8.5, 150 mM NaCl
T1 construct: gene PpSQ1_00405

Sequences of proteins named here, by UniProt entry; tags and fusion partners are left off. A change or cut given only in a name is not applied to a line headed by its entry.
UniProt P0DOV5: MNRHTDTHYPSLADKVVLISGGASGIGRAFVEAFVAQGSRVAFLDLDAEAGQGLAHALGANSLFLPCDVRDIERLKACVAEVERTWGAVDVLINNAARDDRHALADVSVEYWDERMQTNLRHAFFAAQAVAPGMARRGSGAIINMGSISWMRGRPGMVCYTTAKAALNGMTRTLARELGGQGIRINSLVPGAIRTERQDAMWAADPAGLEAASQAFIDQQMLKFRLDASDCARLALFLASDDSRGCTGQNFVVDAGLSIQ

[2] = biological target: T1, PpSQDH (P. putida SQ dehydrogenase; PpSQ1_00090); settings: 0.30 mM NAD+, 0.48 mM enzyme, 50 mM tricine pH 8.5, 150 mM NaCl; no saturation at 16-200 mM

## NC(=O)C1=CN([C@@H]2O[C@H](COP(=O)(O)OP(=O)(O)OC[C@H]3O[C@@H](n4cnc5c(N)ncnc54)[C@H](O)[C@@H]3O)[C@@H](O)[C@H]2O)C=CC1 [NADH]
[1]
  product inhibition, NADH absorbance at 340 nm, double reciprocal plots: consistent with NADH acting as a competitive inhibitor for NAD^+

## O=P(O)(O)OC[C@H]1OC(O)[C@H](O)[C@@H](O)[C@@H]1O (some centres unmarked) [G6P, glucose-6-phosphate]
[2]
  NADH formation at 340 nm, UV-vis: we could detect a low rate of reaction in the presence of the preferred cofactor
